Pooled drug test results. Numbers come from NIAID ChemDB, via PubChem.

All rows: growth or infection tests; agent: Candida albicans

ECn is the concentration giving n% inhibition of infection, replication or growth. Lines come from different laboratories, so protocols vary. A number after MIC or MFC names an inhibition level or a share of isolates. An empty or dashed field is not shown.

smiles,method,endpoint,strain,result
COc1cc(O)c2c(c1)C(=O)c1c(cc3c(c1O)-c1c(cc(C)c(C(=O)NC(CO)C(=O)O)c1O)[C@H](OC1OC(C)C(O)C(OC4OCC(O)C(O)C4O)C1O)C3O)C2=O,-,MIC,A9540,6.3 µg/mL
COc1ccc(-c2oc3ccc(C)cc3c2C(=O)c2cc(OC)c(OC)c(OC)c2)cc1,broth dilution,EC80,-,>200 µg/mL
Clc1cc2ncn(-c3ccc(-c4nc5ccccc5[nH]4)cc3)c2cc1Cl,broth dilution,MIC,ATCC 10231,12.5 µg/mL
C[C@@H](N1CCN(Cc2cn(Cc3ccc(F)cc3)c3ccccc23)CC1)[C@](O)(Cn1cncn1)c1ccc(F)cc1F,resazurin,MIC80,ATCC 36082,8 µg/mL
COc1cncc(-c2nc(-c3ccccc3)[n+](-c3ccccc3)[nH]2)n1,broth dilution,MIC,-,>256 µg/mL
Cc1ccc(OC(C)c2nnc(SCC(=O)Nc3nccs3)n2-c2ccccc2)cc1,-,MIC,NRRL Y-27077,16 µg/mL
COC1CC2CCC(C)C(O)(O2)C(=O)C(=O)N2CCCCC2C(=O)OC(C(C)CC2CCC(O)C(OC)C2)CC(=O)C(C)/C=C(\C)[C@@](O)(c2ccc(C)s2)C(OC)C(=O)C(C)CC(C)/C=C/C=C/C=C/1C,-,MIC,TOR1-1/TOR1,>100 µg/mL
COc1cncc(C2=NS(=O)N(c3ccccc3)N2)n1,broth dilution,MIC,-,64 µg/mL
COc1ccc(C(=O)OC2CC(C)CCC2C(C)C)cc1,-,MIC,-,21.38 µM
c1ccc2[nH]c(-c3ccc(-n4cnc5ccccc54)cc3)nc2c1,broth dilution,MIC,ATCC 10231,6.25 µg/mL
C[C@H]1[C@H](O)[C@@H](C)/C=C/C=C/C=C/C=C/C=C/C=C/C=C/[C@H](O[C@@H]2O[C@H](C)[C@@H](O)[C@H](N)[C@@H]2O)C[C@@H]2O[C@](O)(C[C@@H](O)C[C@@H](O)CC[C@H](O)[C@@H](O)C[C@@H](O)CC(=O)O[C@H]1C)C[C@H](O)[C@H]2C(=O)O,-,MIC,B311,0.125 µg/mL
CC1CCC(C(C)C)C(OC(=O)c2ccccc2[N+](=O)[O-])C1,-,MIC,-,5.13 µM
Fc1ccc2c(c1)ncn2-c1ccc(-c2nc3ccccc3[nH]2)cc1,broth dilution,MIC,ATCC 10231,12.5 µg/mL
CCOC(=O)Cc1csc(NC(=O)CSc2nnc(C(C)Oc3ccccc3)n2-c2ccccc2)n1,-,MIC,NRRL Y-27077,4 µg/mL
Cc1c(O)cccc1C(=O)N[C@@H](CSc1ccccc1)[C@H](O)CN1C[C@H]2CCCC[C@H]2C[C@H]1C(=O)NC(C)(C)C,-,MIC,I104,64 µg/mL
CCOC(=O)Cc1csc(NC(=O)CSc2nnc(C(C)Oc3ccc(C)cc3)n2-c2ccccc2)n1,-,MIC,NRRL Y-27077,16 µg/mL
C[C@@H]1[C@H](O)[C@@H](C)/C=C/C=C/C=C/C=C/C=C/C=C/C=C/[C@H](O[C@@H]2O[C@H](C)[C@@H](O)[C@H](N)[C@@H]2O)C[C@@H]2O[C@](O)(C[C@@H](O)C[C@@H](O)[C@H](O)CC[C@@H](O)C[C@@H](O)CC(=O)O[C@H]1C)C[C@H](O)[C@H]2C(=O)O,MTT,MIC,ATCC 90028,3 µg/mL
CCOC(=O)c1csc(NC(=O)CSc2nnc(C(C)Oc3ccc(C)cc3)n2C2CCCCC2)n1,-,MIC,Clinical isolates,>16 µg/mL
Clc1ccc(CCC(Cn2ccnc2)Sc2c(Cl)cccc2Cl)cc1,-,MIC,ATCC 14053,10 µg/mL
O[C@](Cn1cncn1)(Cn1cnc(/C=C/c2ccc(OCC(F)(F)C(F)F)cc2)n1)c1ccc(F)cc1F,-,MIC,IFO 1594,0.024 µg/mL
C[C@@H](N1CCN(Cc2cn(Cc3ccc(C(F)(F)F)cc3)c3c(F)cccc23)CC1)[C@](O)(Cn1cncn1)c1ccc(F)cc1F,resazurin,MIC80,ATCC 64548,0.125 µg/mL
C[C@H]1[C@H](O)[C@@H](C)/C=C/C=C/C=C/C=C/C=C/C=C/C=C/[C@H](O[C@@H]2O[C@H](C)[C@@H](O)[C@H](N)[C@@H]2O)C[C@@H]2O[C@](O)(C[C@@H](O)C[C@@H](O)CC[C@H](O)[C@@H](O)C[C@@H](O)CC(=O)O[C@H]1C)C[C@H](O)[C@H]2C(=O)O,-,MIC90,-,0.78 µg/mL
O=[N+]([O-])c1ccc2c(c1)ncn2-c1ccc(-c2nc3ccccc3[nH]2)cc1,broth dilution,MIC,ATCC 10231,12.5 µg/mL
COc1ccc(-c2oc3ccc(C)cc3c2C(=O)c2ccc(O)cc2)cc1,broth dilution,EC80,-,>200 µg/mL
Cc1nnsc1C(=O)NNC(=S)Nc1ccc([N+](=O)[O-])cc1,agar,MIC,ATCC 10231,100 µg/mL
COC(=O)Cc1csc(NC(=O)CSc2nnc(C(C)Oc3ccccc3)n2C2CCCCC2)n1,-,MIC,NRRL Y-27077,16 µg/mL
CCC(C)n1ncn(-c2ccc(N3CCN(c4ccc(OC[C@H]5CO[C@](Cn6cncn6)(c6ccc(Cl)cc6Cl)O5)cc4)CC3)cc2)c1=O,-,MIC50,-,0.1 µg/mL
C[C@@H](N1CCN(Cc2cn(Cc3ccc(Cl)cc3Cl)c3c(F)cccc23)CC1)[C@](O)(Cn1cncn1)c1ccc(F)cc1F,resazurin,MIC80,ATCC 90028,0.125 µg/mL
CC1CCC(C(C)C)C(OC(=O)/C=C/c2ccccc2)C1,-,MIC,-,10.96 µM
Cc1ccc2c(c1)ncn2-c1ccc(-c2nc3ccccc3[nH]2)cc1,broth dilution,MIC,ATCC 10231,12.5 µg/mL
COC1CC2CCC(C)C(O)(O2)C(=O)C(=O)N2CCCCC2C(=O)OC(C(C)CC2CCC(O)C(OC)C2)CC(=O)C(C)/C=C(\C)C(O)C(OC)C(=O)C(C)C[C@](C)(N(O)C(=O)NN2CCCCC2)/C=C/C=C/C=C/1C,-,MFC,WILD TYPE,0.78 µg/mL
CC(O)Cc1ccc(Cn2cc(CN3CCN([C@H](C)[C@](O)(Cn4cncn4)c4ccc(F)cc4F)CC3)c3cccc(F)c32)cc1,resazurin,MIC80,ATCC 36082,2 µg/mL
COc1ccc(-c2oc3ccc(C)cc3c2C(=O)c2ccc(O)c(C)c2)cc1,broth dilution,EC80,-,>200 µg/mL
COc1cncc(-c2n[nH]c(-c3cncc(OC)n3)n2)n1,broth dilution,MIC,-,>256 µg/mL
O=C(NNC(=S)Nc1ccc(F)cc1F)c1cc2ccccc2[nH]1,agar,MIC,ATCC 10231,>400 µg/mL
N=C(N)c1ccc2nc(-c3ccc(-c4nc5ccc(C(=N)N)cc5[nH]4)[nH]3)[nH]c2c1,-,MIC,Isolate 17 (strain 12-99),0.78 µg/mL
Cc1nnsc1C(=O)NNC(=S)Nc1ccc(Cl)cc1Cl,agar,MIC,ATCC 90028,200 µg/mL
Nc1[nH]c(=O)ncc1F,-,Geometric mean MIC,5 isolates fluconazole-susceptible,0.223 µg/mL
CC[C@@H]1[C@@H](Cn2cncn2)[C@H](COc2ccc(OC(F)(F)F)cc2)CC[C@@]1(C)CCN1CCOCC1,-,MIC,CY3003,0.03 µg/mL
COc1ccc(-c2oc3ccc(C)cc3c2C(=O)c2cc(Cl)cc(Cl)c2)cc1,broth dilution,EC80,-,>200 µg/mL
C[C@H]1[C@H](O)[C@@H](C)/C=C/C=C/C=C/C=C/C=C/C=C/C=C/[C@H](O[C@@H]2O[C@H](C)[C@@H](O)[C@H](N)[C@@H]2O)C[C@@H]2O[C@](O)(C[C@@H](O)C[C@@H](O)CC[C@H](O)[C@@H](O)C[C@@H](O)CC(=O)O[C@H]1C)C[C@H](O)[C@H]2C(=O)O,-,Geometric mean MIC,12 isolates fluconazole-resistant,0.472 µg/mL